Experimental data taken from patent US7189724B2, “Quinoxaline derivatives having antiviral activity” (Valeant Research and Development, priority 2003, dated 2007).

Sequences of proteins named here, by UniProt entry; tags and fusion partners are left off. Residues count along the entry.
UniProt Q9WMX2, 2420-3010 limits assumed: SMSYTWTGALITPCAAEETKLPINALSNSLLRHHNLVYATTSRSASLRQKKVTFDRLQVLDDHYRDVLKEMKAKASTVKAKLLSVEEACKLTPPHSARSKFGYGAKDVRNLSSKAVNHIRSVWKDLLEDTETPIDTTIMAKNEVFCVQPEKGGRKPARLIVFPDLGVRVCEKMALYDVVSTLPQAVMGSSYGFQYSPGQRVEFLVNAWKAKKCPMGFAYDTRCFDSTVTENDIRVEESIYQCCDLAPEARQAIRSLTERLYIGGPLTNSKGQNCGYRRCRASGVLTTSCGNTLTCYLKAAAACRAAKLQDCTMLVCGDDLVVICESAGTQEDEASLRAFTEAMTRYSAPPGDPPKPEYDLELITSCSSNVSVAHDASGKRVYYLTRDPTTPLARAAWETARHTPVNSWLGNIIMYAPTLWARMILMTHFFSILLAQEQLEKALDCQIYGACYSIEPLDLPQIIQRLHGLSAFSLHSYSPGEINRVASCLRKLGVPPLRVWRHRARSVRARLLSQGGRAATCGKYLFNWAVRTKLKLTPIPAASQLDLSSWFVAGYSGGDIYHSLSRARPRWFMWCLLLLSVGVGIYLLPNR

Columns and labels:
[1] = test system: HCV replicon RNA in replicon cells (Huh-7); assay: HCV Replicon Assay (reduction of HCV RNA, QuantiGene); format: cell-based, Hepatitis C virus; details: Huh-7 replicon cells, 3 days at 37° C.; for EC50: read-out: HCV Replicon (EC50), first part of Table 1 (scaffold drawing 18)
Protocol: The anti-HCV activity of the quinoxaline derivatives was tested by replicon and BVDV cell-line based assays. The HCV NS5B polymerase activity was tested as described below, and was further tested for its capability of inhibition of replication of the hepatitis C virus in a cell-line based HCV replicon assay as described in V. Lohmann, F. Komer, J.-O. Koch, U. Herian, L. Theilmann, R. Bartenschlager, “Replication of a Subgenomic Hepatitis C virus RNAs in a Hepatoma Cell Line”, Science, 1999, 285:110.
HCV Replicon Assay. The replicon cells (Huh-7) contain replicating HCV replicon RNA, which was modified in the structural region (replacing the structural region with a neomycin resistance marker). Survival of the replicon cells under G418 selection relies on the replication of HCV RNA and subsequently expression of neomycin phosphoryltransferase. The ability of modified nucleoside libraries and compounds to suppress HCV RNA replication was determined using the QuantiGene™ Assay Kit (Bayer Diagnostics, Tarrytown N.Y.). The assay measures the reduction of HCV RNA molecules in the treated cells. Replicon cells were incubated at 37° C. for 3 days in the presence of nucleoside libraries and compounds before being harvested for detection. The assay protocol was modified based on literature procedure (V. Lohmann, F. Komer, J. O. Koch, U. Herian, L. Theilmann, R. Bartenschlager, Science, 1999, 285, 110–113). The HCV subgenomic replicon cell line was provided by Dr. R. Bartenschlager.

HCV NS5B polymerase = HCV NS5B polymerase (Hepatitis C virus genotype 1b, UniProt Q9WMX2); assay: De novo RNA synthesis activity assay for HCV NS5B polymerase; format: biochemical, HCV-1b CON1 strain; details: NS5B 250 nM, 23C, 1 hr; for IC50: read-out: HCV NS5B (IC50), first part of Table 1 (scaffold drawing 18)
From the text: HCV NS5B was derived from a cDNA clone encoding HCV-1b CON1 strain, and was expressed and purified from E. coli. Various [α-^33P]rNTPs (3000 Ci/mmol) were purchased from Perkin Elmer. 3′-Deoxy ribonucleosides, their 5′-triphosphates and dinucleotide primers were from Sigma, TriLink (San Diego, Calif.) or ICN Biochemicals. All other reagents were of the highest grade available from ICN, Sigma, Fisher, or Ambion.
An HCV mini-genome of 2.1-kb contains an entire 5′-UTR (untranslated region), part of NS5B sequence and an entire 3′-UTR was constructed from an internal deletion between two KpnI sites on the HCV replicon plasmid, pFK389/NS3-3′. To generate the in vitro transcribed mini-genome RNA, the plasmid DNA was linearized with AseI and ScaI and transcribed in vitro using a MegaScript kit (Ambion, Austin, Tex.). After phenol-chloroform extraction and isopropanol precipitation, the RNA was resuspended in RNase-free water and stored at −80° C. before use. This HCV strain CON1-based template was used for the standard NS5B-catalyzed RNA synthesis assay.
A standard NS5B activity assay was performed at 23C in a total volume of 25 μl. The reaction buffer contained 50 mM Tris, pH 7.0, 10 mM MgCl2, 50 mM NaCl, 5 mM DTT (add fresh) and 0.05 mg/ml BSA. 0.4 μg of the RNA template was incubated with NS5B enzyme (250 nM) before adding a mixture of radiolabeled nucleotide (0.2 μCi) and cold nucleotide cocktail to initiate a reaction. The assay was incubated for 1 hr and terminated by addition of 75 μl of 5% trichloroacetic acid (TCA) and 0.05% pyrophosphate solution. The quenched solution was incubated at room temperature for 10 min to precipitate out polymeric products and subsequently transferred to a 96-well white GF/B filter microplate (Packard Instrument) using a Packard Filtermate Universal Harvester. The filter plate was washed five times by water and one time by ethanol before vacuum drying. 40 μl of liquid scintillation cocktail (Packard MicroSint™) was added to each well. Radioactivity incorporated into the product was counted in a 96-well format using a Packard TopCount. IC50 values, defined as the inhibitor concentration to suppress 50% of NS5B activity, were determined by varying the compound concentration. The results in Table 1 are data obtained using the HCV NS5B assays described above.

`NC(=O)[C@H](Cc1c[nH]c2ccccc12)NC(=O)c1ccc2nc(-c3ccc(F)cc3)c(-c3ccc(F)cc3)nc2c1` gave an EC50 [1] of 10 to 50 µM and an IC50 (HCV NS5B polymerase) of under 10 µM.
Work on `O=C(N[C@@H](Cc1c[nH]c2ccccc12)C(=O)O)c1ccc2nc(-c3ccc(F)cc3)c(-c3ccc(F)cc3)nc2c1` yielded an EC50 [1] of over 50 µM and an IC50 (HCV NS5B polymerase) of under 10 µM.
For `O=C(O)c1ccc2nc(-c3ccc(F)cc3)c(-c3ccc(F)cc3)nc2c1`, the IC50 ([1]; read-out: HCV Replicon (IC50), second part of Table 1 (scaffold drawing 19)) was over 50 µM and the EC50 (HCV NS5B polymerase; read-out: HCV NS5B (EC50), second part of Table 1 (scaffold drawing 19)) was under 10 µM.
Compound `COC(=O)[C@H](Cc1c[nH]c2ccccc12)NC(=O)c1ccc2nc(-c3ccc(F)cc3)c(-c3ccc(F)cc3)nc2c1` has an EC50 [1] of 10 to 50 µM and an IC50 (HCV NS5B polymerase) of over 50 µM.
